According to paper PMC3111433:

Tests used:
[1] = tested on: C[C@](O)(CO)[C@H](O)COP(=O)(O)O; assay: purified protein; details: pH 8.0; 37.0 °C
[2] = tested on: Nc1ccn([C@@H]2O[C@H](COP(=O)(O)OP(=O)(O)OP(=O)(O)O)[C@@H](O)[C@H]2O)c(=O)n1; assay: purified protein; details: pH 8.0; 37.0 °C

## F. tularensis MEP cytidylyltransferase (IspD) (Francisella tularensis subsp. holarctica LVS)
[1]
  Km: 177.9 ± 35.2 µM
[2]
  Km: 73.0 ± 14.9 µM
